Assay results reported in ChEMBL document CHEMBL5505957 (Eur J Med Chem, 2024).

Experiment: Selectivity index, ratio of IC50 for cytotoxicity against MDCK cells to IC50 for Inhibition of Influenza A virus H1N1 neuraminidase
Settings: dog

With `CC(=O)O[C@H]1[C@H](OCc2cn(CC3=NCCS3)nn2)OC[C@@H](OC(C)=O)[C@H]1OC(C)=O` the Ratio IC50 was 184.
